A mixed list of measured activities; the numbers were collected in NIAID ChemDB.

Common to all: target-level tests

ICn is the concentration giving n% inhibition. Percent inhibition refers to the dose given; in toxicity tests it is the harm to the cells. An empty or dashed field is not shown. Lines come from different laboratories, so protocols vary.

structure,strain,read-out,dose,target,species,method,result
O=Cc1sc(-c2cccnc2)nc1OCc1cnnn1-c1cc2ccc(O)cc2oc1=O,-,IC50,-,DNA gyrase,Mycobacterium tuberculosis,gel / absorbance,16.1 µM
CCN(CC)CCCC(C)Nc1ccnc2cc(Cl)ccc12,-,IC50,-,DNA gyrase,Mycobacterium tuberculosis,gel,>100 µM
O=c1[nH]c(=O)n([C@H]2C[C@H](O)[C@@H](CO)O2)cc1F,-,IC50,-,Thymidine monophosphate kinase,Mycobacterium tuberculosis,-,212 µM
Nc1nc(N)nc(-c2ccc(OCc3cccc(Cl)c3)cc2)n1,-,IC50,-,Dihydrofolate reductase,Mycobacterium tuberculosis,absorbance,5.62 µM
CC1CCCCC1NC(=O)CN(C)S(=O)(=O)c1cccc2cccnc12,H37Rv,inhibition,100 µM,Lipoamide dehydrogenase,Mycobacterium tuberculosis,absorbance,10%
O=c1[nH]c(=O)n([C@H]2C[C@H](O)[C@@H](COP(=O)(O)O)O2)cc1COCc1ccccc1,-,Ki,-,Thymidylate kinase,Mycobacterium tuberculosis,-,280 µM
CCCCCCCCCCCC1=CC(=O)C(OC)=C(OC)C1=O,-,inhibition,40 µM,NADH dehydrogenase,Mycobacterium tuberculosis,-,76%
CCOc1ccc2cc(-n3nncc3COc3nc(-c4cccnc4)sc3C=O)c(=O)oc2c1,-,IC50,-,DNA gyrase,Mycobacterium tuberculosis,gel / absorbance,11.3 µM
Cc1cn([C@@H]2O[C@H](CO)[C@@H](N)[C@H]2Cl)c(=O)[nH]c1=O,-,Ki,-,Thymidylate kinase,Mycobacterium tuberculosis,-,145 µM
C[C@@H](N)[C@H](O)CCCCCCCCCCCCC(=O)CCCCCCCCC[C@@H](O)[C@@H](N)CO,-,IC50,-,MYCOTHIOL-S-CONJUGATE AMIDASE,Mycobacterium tuberculosis,-,100 µM
CO[C@H]1O[C@@H](n2ccc(=O)[nH]c2=O)C[C@@H]1N=[N+]=[N-],-,IC50,-,Thymidine monophosphate kinase,Mycobacterium tuberculosis,-,810 µM
COc1cnc2ccc(=O)n(CCN3CCC(NCc4cc5c(cn4)OCCO5)CC3)c2c1,-,IC50,-,DNA gyrase,Mycobacterium tuberculosis,gel,2.8 µM
CS[C@]1(CO)C(=O)N2[C@H]3C(=CC=C[C@@H]3O)C[C@@]2(SC)C(=O)N1C,-,IC50,-,MYCOTHIOL-S-CONJUGATE AMIDASE,Mycobacterium tuberculosis,-,70 µM
CCc1cn([C@H]2C[C@H](O)[C@@H](CO)O2)c(=O)[nH]c1=O,-,IC50,-,Thymidine monophosphate kinase,Mycobacterium tuberculosis,-,1140 µM
O=c1ccc2ncccc2n1CCN1CCC(NCc2cc(Cl)c(Cl)cn2)CC1,-,IC50,-,DNA gyrase,Mycobacterium tuberculosis,gel,10.98 µM
COc1cc(C2NC(=S)N=C3C2C(=O)N=C2SC([N+](=O)[O-])=CN23)ccc1O,-,inhibition,100 µM,CysK1,Mycobacterium tuberculosis,absorbance,10.8%
O=c1oc(CF)ns1,-,IC50,-,Proteasome,Mycobacterium tuberculosis,broth dilution / fluorescence,80.5 µM
COc1cc(/C=C2\SC(=S)N(CCC(=O)NNC(=O)c3cccc4ccccc34)C2=O)cc(OC)c1OC,-,IC50,-,Pantothenate synthetase,Mycobacterium tuberculosis,absorbance,1.14 µM
Cc1cn([C@@H]2O[C@H](CO)[C@@H](N=[N+]=[N-])[C@H]2F)c(=O)[nH]c1=O,-,Ki,-,Thymidylate kinase,Mycobacterium tuberculosis,-,118 µM
Cc1cn([C@H]2C[C@H](N=[N+]=[N-])[C@@H](CO)O2)c(=O)[nH]c1=O,-,IC50,-,Thymidine monophosphate kinase,Mycobacterium tuberculosis,-,28 µM
O=c1[nH]c(=O)n([C@H]2C[C@H](O)[C@@H](CO)O2)cc1O,-,IC50,-,Thymidine monophosphate kinase,Mycobacterium tuberculosis,-,270 µM
C[N+](C)(C)CCCN1c2ccccc2Sc2c1ccc1ccccc21,-,IC50,-,NADH dehydrogenase,Mycobacterium tuberculosis,-,13 µM
COC(=O)c1ccccc1S(=O)(=O)NC(=O)Nc1nc(C)cc(OC)n1,-,Ki,-,Acetohydroxyacid synthase,Mycobacterium tuberculosis,-,66.7 µM
O=c1onc(/C=C/c2ccccc2)o1,-,IC50,-,Proteasome,Mycobacterium tuberculosis,broth dilution / fluorescence,54.5 µM
O=C(O)c1sc(-c2ccncc2)nc1OCc1cnnn1-c1cc2ccc(O)cc2oc1=O,-,IC50,-,DNA gyrase,Mycobacterium tuberculosis,gel / absorbance,14.9 µM
N[C@@H]1CN(c2c(F)cc3c(=O)c(C(=O)O)cn([C@@H]4C[C@@H]4F)c3c2Cl)CC12CC2,-,IC50,-,Gyrase (V90A mutant),Mycobacterium tuberculosis,-,22.1 µg/mL
O=c1ccn([C@H]2C[C@H](O)[C@@H](COP(=O)(O)O)O2)c(=O)[nH]1,-,Ki,-,Thymidylate kinase,Mycobacterium tuberculosis,-,280 µM
Cc1cn([C@@H]2O[C@H](CO)[C@@H](N)[C@@H]2O)c(=O)[nH]c1=O,-,Ki,-,Thymidylate kinase,Mycobacterium tuberculosis,-,1260 µM
NCCCOc1c(Br)cc(C/C(=N\O)C(=O)NCCc2cnc(N)[nH]2)cc1Br,-,IC50,-,MYCOTHIOL-S-CONJUGATE AMIDASE,Mycobacterium tuberculosis,-,30 µM
CCOC(=O)c1ccccc1S(=O)(=O)NC(=O)Nc1nc(Cl)cc(OC)n1,-,Ki,-,Acetohydroxyacid synthase,Mycobacterium tuberculosis,-,9.8 µM
COc1cc(C[C@@H](C)[C@@H](C)Cc2ccc(O)c(OC)c2)ccc1O,Rv3273,Ki,-,Rv3273,Mycobacterium tuberculosis,-,9.1 µM
O=c1oc(/C=C/c2ccccn2)ns1,-,IC50,-,Proteasome,Mycobacterium tuberculosis,broth dilution / fluorescence,2.35 µM
C=CN(O)C[C@@H](CCCC)C(=O)N[C@H](C(=O)N(C)C)C(C)(C)C,-,IC50,-,Peptide deformylase,Mycobacterium tuberculosis,-,23.9 µM
CN(C)c1ccc(C2NC(=O)N=C3C2C(=O)N=C2SC([N+](=O)[O-])=CN23)cc1,-,inhibition,100 µM,CysK1,Mycobacterium tuberculosis,absorbance,7.3%
CCN(Cc1ccccc1)C(=O)CN(C)S(=O)(=O)c1cc(Br)cnc1N,H37Rv,inhibition,100 µM,Lipoamide dehydrogenase,Mycobacterium tuberculosis,absorbance,100%
COC(=O)c1ccccc1S(=O)(=O)NC(=O)Nc1nc(C)cc(C)n1,-,Ki,-,Acetohydroxyacid synthase,Mycobacterium avium,-,13.5 µM
O=c1ccn([C@H]2C[C@H](O)[C@@H](CO)O2)c(=O)[nH]1,-,IC50,-,Thymidine monophosphate kinase,Mycobacterium tuberculosis,-,1020 µM
O=c1oc(Cc2ccccc2)ns1,-,IC50,-,Proteasome,Mycobacterium tuberculosis,broth dilution / fluorescence,>100 µM
O[C@H](c1cc(C(F)(F)F)nc2c(C(F)(F)F)cccc12)[C@@H]1CCCCN1,-,IC50,-,DNA gyrase,Mycobacterium tuberculosis,gel,>100 µM
O=C1N=C2C(C(=O)N=C3SC([N+](=O)[O-])=CN32)C(c2ccccc2O)N1,-,inhibition,100 µM,CysK1,Mycobacterium tuberculosis,absorbance,0%
O=c1ccn([C@H]2C[C@H](O)[C@@H](CO)O2)c(=O)[nH]1,-,IC50,-,Thymidine monophosphate kinase,Mycobacterium tuberculosis,-,1020 µM
CO[C@@H]1[C@@H](OCc2ccccc2)[C@@H](OCc2ccccc2)[C@H](O[C@@H]2[C@H](OC(C)=O)[C@@H](COC(C)=O)OC(O)[C@@H]2NC(C)=O)O[C@H]1C,-,IC50,-,Galactosyltransferase,Mycobacterium tuberculosis,-,370 µg/mL
O=C1N=C2C(C(=O)N=C3SC([N+](=O)[O-])=CN32)C(c2ccccc2)N1,-,inhibition,100 µM,CysK1,Mycobacterium tuberculosis,absorbance,15.9%
CC(C)C1(C)N=C(c2nc3ccccc3cc2C(=O)O)NC1=O,-,Ki,-,Acetohydroxyacid synthase,Mycobacterium avium,-,>1000 µM
CC1=CC(=O)c2ccccc2C1=O,-,inhibition,40 µM,NADH dehydrogenase,Mycobacterium tuberculosis,-,29%
Nc1nc(N)c2nc(CN3c4ccccc4C=Cc4ccccc43)cnc2n1,-,IC50,-,DHFR,Mycobacterium avium,-,0.012 µM
CCOc1ccc2cc(-n3nncc3COc3nc(-c4ccncc4)sc3C=O)c(=O)oc2c1,-,IC50,-,DNA gyrase,Mycobacterium tuberculosis,gel / absorbance,9.1 µM
[N-]=[N+]=N[C@H]1C[C@H](n2cc(Br)c(=O)[nH]c2=O)O[C@@H]1CO,-,IC50,-,Thymidine monophosphate kinase,Mycobacterium tuberculosis,-,10.5 µM
COC(=O)c1ccccc1S(=O)(=O)NC(=O)Nc1nc(OCF)cc(OCF)n1,-,Ki,-,Acetohydroxyacid synthase,Mycobacterium avium,-,18.3 µM
O=c1[nH]c(=O)n([C@H]2C[C@H](O)[C@@H](CO)O2)cc1I,-,IC50,-,Thymidine monophosphate kinase,Mycobacterium tuberculosis,-,33 µM
Nc1nc(N)c2cc(NC3c4ccccc4C=Cc4ccccc43)ccc2n1,-,IC50,-,DHFR,Mycobacterium avium,-,16 µM
O=Cc1sc(-c2ccncc2)nc1OCc1cnnn1-c1cc2ccc(O)cc2oc1=O,-,IC50,-,DNA gyrase,Mycobacterium tuberculosis,gel / absorbance,>25 µM
O=C(N/N=C/c1cc([N+](=O)[O-])cc([N+](=O)[O-])c1O)c1ccc(S(=O)(=O)NC[C@H]2O[C@@H](n3ccc(=O)[nH]c3=O)[C@H](O)[C@@H]2O)cc1,-,inhibition,25 µM,UDP-galactopyranose mutase,Mycobacterium tuberculosis,-,70%
O=c1[nH]c(=O)n([C@H]2C[C@H](O)[C@@H](CO)O2)cc1C(F)(F)F,-,IC50,-,Thymidine monophosphate kinase,Mycobacterium tuberculosis,-,97 µM
NNC(=O)c1ccc(S(=O)(=O)NC[C@H]2O[C@@H](n3ccc(=O)[nH]c3=O)[C@H](O)[C@@H]2O)cc1,-,IC50,-,UDP-galactopyranose mutase,Mycobacterium tuberculosis,-,>100 µM
Cc1cc(NC(=O)CN(C)S(=O)(=O)c2cc(Br)cnc2N)ccc1Br,H37Rv,inhibition,100 µM,Lipoamide dehydrogenase,Mycobacterium tuberculosis,absorbance,100%
O=C1N=C2SC([N+](=O)[O-])=CN2C2=NC(=S)NC(c3ccc(Cl)cc3)C12,-,inhibition,100 µM,CysK1,Mycobacterium tuberculosis,absorbance,0%
CCCOc1ccc(Nc2cc(C)nc3ccc(Cl)cc23)cc1,H37Rv,IC90,-,FtsZ,Mycobacterium tuberculosis,-,20.4 µM
O=C1N=C2SC([N+](=O)[O-])=CN2C2=NC(=S)NC(c3ccccc3)C12,-,inhibition,100 µM,CysK1,Mycobacterium tuberculosis,absorbance,9.6%
O=c1[nH]c(=O)n([C@H]2C[C@H](O)[C@@H](CO)O2)cc1F,-,IC50,-,Thymidine monophosphate kinase,Mycobacterium tuberculosis,-,212 µM
Nc1nc(N)c2cc(CN3c4ccccc4C=Cc4ccccc43)ccc2n1,-,IC50,-,DHFR,Mycobacterium avium,-,0.053 µM
NNC(=O)c1ccncc1,-,IC50,-,Pantothenate synthetase,Mycobacterium tuberculosis,absorbance,>25 µM
O=c1oc(/C(=C/c2ccccc2)c2ccccc2)ns1,-,IC50,-,Proteasome,Mycobacterium tuberculosis,broth dilution / fluorescence,>100 µM
O=C1N=C2SC([N+](=O)[O-])=CN2C2=NC(=S)NC(c3ccc([N+](=O)[O-])cc3)C12,-,inhibition,100 µM,CysK1,Mycobacterium tuberculosis,absorbance,29.4%
CCCCN(C)C(=O)CCNS(=O)(=O)c1cc(Br)cnc1N,H37Rv,inhibition,100 µM,Lipoamide dehydrogenase,Mycobacterium tuberculosis,absorbance,18%
O=C(O)c1sc(-c2cccnc2)nc1OCc1cnnn1-c1cc2ccc(O)cc2oc1=O,-,IC50,-,DNA gyrase,Mycobacterium tuberculosis,gel / absorbance,18.2 µM
O=C(CCN1C(=O)/C(=C/c2ccc(Cl)cc2)SC1=S)NNC(=O)c1cccnc1,-,IC50,-,Pantothenate synthetase,Mycobacterium tuberculosis,absorbance,1.35 µM

A second listing of 7 rows from above:

{"structure": "C=CN(O)C[C@@H](CCCC)C(=O)N[C@H](C(=O)N(C)C)C(C)(C)C", "read-out": "IC50", "target": "Peptide deformylase", "species": "Mycobacterium tuberculosis", "result": "23.9 µM"}
{"structure": "O=C1N=C2C(C(=O)N=C3SC([N+](=O)[O-])=CN32)C(c2ccccc2O)N1", "read-out": "inhibition", "dose": "100 µM", "target": "CysK1", "species": "Mycobacterium tuberculosis", "method": "absorbance", "result": "0%"}
{"structure": "O=C(CCN1C(=O)/C(=C/c2ccc(Cl)cc2)SC1=S)NNC(=O)c1cccnc1", "read-out": "IC50", "target": "Pantothenate synthetase", "species": "Mycobacterium tuberculosis", "method": "absorbance", "result": "1.35 µM"}
{"structure": "[N-]=[N+]=N[C@H]1C[C@H](n2cc(Br)c(=O)[nH]c2=O)O[C@@H]1CO", "read-out": "IC50", "target": "Thymidine monophosphate kinase", "species": "Mycobacterium tuberculosis", "result": "10.5 µM"}
{"structure": "Nc1nc(N)c2cc(CN3c4ccccc4C=Cc4ccccc43)ccc2n1", "read-out": "IC50", "target": "DHFR", "species": "Mycobacterium avium", "result": "0.053 µM"}
{"structure": "Cc1cn([C@@H]2O[C@H](CO)[C@@H](N=[N+]=[N-])[C@H]2F)c(=O)[nH]c1=O", "read-out": "Ki", "target": "Thymidylate kinase", "species": "Mycobacterium tuberculosis", "result": "118 µM"}
{"structure": "CCc1cn([C@H]2C[C@H](O)[C@@H](CO)O2)c(=O)[nH]c1=O", "read-out": "IC50", "target": "Thymidine monophosphate kinase", "species": "Mycobacterium tuberculosis", "result": "1140 µM"}